Patent US20240122867A1, “CORONAL PROTEIN-COATED NANOPARTICLES AND USES THEREOF” (UNIVERSITY OF CENTRAL FLORIDA RESEARCH FOUNDATION, INC., priority 2021, published 2024)

B1: Hemopexin (protein, UniProt Q91X72 24-460, looked up)
Hemopexin: SPLPTANGRVAEVENGTKPDSDVPEHCLDTWSFDAATMDHNGTMLFFKGEFVWRGHSGTRELISARWKNPITSVDAAFRGPDSVFLIKEDKVWVYPPEKKENGYPKLFQEEFPGIPYPPDAAVECHRGECQSEGVLFFQGNRKWFWDFATRTQKERSWSTVGNCTAALRWLERYYCFQGNKFLRFNPVTGEVPPRYPLDARDYFVSCPGRGHGRPRNGTAHGNSTHPMHSRCSPDPGLTALLSDHRGATYAFTGSHYWRLDSSRDGWHSWPIAHHWPQGPSTVDAAFSWDDKVYLIQGTQVYVFLTKGGNNLVSGYPKRLEKELGSPPGISLETIDAAFSCPGSSRLYVSSGRRLWWLDLKSGAQATWTEVSWPHEKVDGALCLDKSLGPNTCSSNGSSLYFIHGPNLYCYSSIDKLNAAKSLPQPQKVNSILGCSQ
B2: Plasma protease C1 inhibitor (protein, UniProt P97290 23-504, looked up)
Plasma protease C1 inhibitor: DPEATSHSTQDPLEAQAKSRESFPERDDSWSPPEPTVLPSTWPTTSVAITITNDTMGKVANESFSQHSQPAAQLPTDSPGQPPLNSSSQPSTASDLPTQATTEPFCPEPLAQCSDSDRDSSEAKLSEALTDFSVKLYHAFSATKMAKTNMAFSPFSIASLLTQVLLGAGDSTKSNLESILSYPKDFACVHQALKGFSSKGVTSVSQIFHSPDLAIRDTYVNASQSLYGSSPRVLGPDSAANLELINTWVAENTNHKIRKLLDSLPSDTCLVLLNAVYLSAKWKITFEPKKMMAPFFYKNSMIKVPMMSSVKYPVAQFDDHTLKAKVGQLQLSHNLSFVIVVPVFPKHQLKDVEKALNPTVFKAIMKKLELSKFLPTYLTMPHIKVKSSQDMLSVMEKLEFFDFTYDLNLCGLTEDPDLQVSAMKHETVLELTESGVEAAAASAISFGRSLPIFEVQRPFLFLLWDQQHRFPVFMGRVYDPRG
B3: Serum amyloid A-2 protein (protein, UniProt P05367 20-122, looked up)
Serum amyloid A-2 protein: GFFSFIGEAFQGAGDMWRAYTDMKEAGWKDGDKYFHARGNYDAAQRGPGGVWAAEKISDARESFQEFFGRGHEDTMADQEANRHGRSGKDPNYYRPPGLPAKY
B4: Cluster of Keratin, type I cytoskeletal 10 (protein, UniProt P02535 1-570, looked up)
Keratin, type I cytoskeletal …: MSVLYSSSSKQFSSSRSGGGGGGGSVRVSSTRGSLGGGYSSGGFSGGSFSRGSSGGGCFGGSSGGYGGFGGGGSFGGGYGGSSFGGGYGGSSFGGGYGGSSFGGAGFGGGGSFGGGSFGGGSYGGGFGGGGFGGDGGSLLSGNGRVTMQNLNDRLASYMDKVRALEESNYELEGKIKEWYEKHGNSSQREPRDYSKYYKTIEDLKGQILTLTTDNANVLLQIDNARLAADDFRLKYENEVTLRQSVEADINGLRRVLDELTLSKSDLEMQIESLNEELAYLKKNHEEEMRDLQNVSTGDVNVEMNAAPGVDLTQLLNNMRNQYEQLAEKNRKDAEEWFNQKSKELTTEIDSNIEQMSSHKSEITELRRTVQGLEIELQSQLALKQSLEASLAETEGRYCVQLSQIQSQISALEEQLQQIRAETECQNAEYQQLLDIKTRLENEIQTYRSLLEGEGSSSGGGGGRRGGSGGGSYGGSSGGGSYGGSSGGGGSYGGSSGGGGSYGGGSSGGGSHGGSSGGGYGGGSSSGGAGGHGGSSGGGYGGGSSSGGQGGSGGFKSSGGGDQSSKGPRY
modifications: protein cluster
B5: Keratin, type I cytoskeletal 10 (protein, UniProt P02535 1-570, looked up)
Keratin, type I cytoskeletal …: B4 Keratin, type I cytoskeletal …
B6: Keratin, type II cytoskeletal 75 (protein, UniProt Q8BGZ7 1-551, looked up)
Keratin, type II cytoskeletal …: MSRQSTITFHSGSRRGFSTASATTPTAGRSRFSSVSVARSSGNSGGLGRISGIGSGFGSRSLYNLGGTRRVSIGGCAGSGFRGGFGGRTSSGFGGSSGFAYGGGIGGGFGGPGFSVCPSGGIQEVTVNQSLLTPLNLQIDPTIQRVRKEEREQIKTLNNKFASFIDKVRFLEQQNKVLETKWNLLQEQGSRTVRQNLEPFFDTYVNDLRRQLDGITAERGRLDAELRNMQEVVEDFKVRYEDEINKRAAAENEFVGLKKDVDSAYMNKVELEAKVDSLTDQINFYRMIYEAELSQMQNQVSDTSVVLSMDNNRSLDLDSIIAEVKAQYEDIANRSRAEAESWYQTKYEELQVTAGRHGDDLRNTKQEISEMNRMIQRLRSEIDAVKKQCSSLQTAISDAEQRGELALKDARAKLMELEDALQKAKQDMARLLREYQELMNVKLALDVEIATYRKLLEGEECRLSGEGVSPVNISVVTSTVSSGYGGGANIGGGSLGLGGNSGYSFTTSGGHSLGTGLGGSGFTTTSSRGPVGSGSSIKFVSSTSSRKSYKH
B7: Fibrinogen gamma chain (protein, UniProt Q8VCM7 26-436, looked up)
Fibrinogen gamma chain: YVATRDNCCILDERFGSFCPTTCGIADFLSSYQTDVDNDLRTLEDILFRAENRTTEAKELIKAIQVYYNPDQPPKPGMIDSATQKSKKMVEEIVKYEALLLTHETSIRYLQEIYNSNNQKITNLKQKVAQLEAQCQEPCKDSVQIHDTTGKDCQEIANKGAKESGLYFIRPLKAKQQFLVYCEIDGSGNGWTVLQKRIDGSLDFKKNWIQYKEGFGHLSPTGTTEFWLGNEKIHLISMQSTIPYALRIQLKDWNGRTSTADYAMFRVGPESDKYRLTYAYFIGGDAGDAFDGYDFGDDPSDKFFTSHNGMQFSTWDNDNDKFEGNCAEQDGSGWWMNKCHAGHLNGVYHQGGTYSKSSTTNGFDDGIIWATWKSRWYSMKETTMKIIPFNRLSIGEGQQHHMGGSKQAGDV
B8: Keratin, type II cytoskeletal 1b (protein, UniProt Q6IFZ6 1-572, looked up)
Keratin, type II cytoskeletal …: MSRQFSSQSAFSSRSRRAYSSRSSSGFGGGRQALVSVSQSRRYGGDYGGGFSSRSLYSLGGSKSIFGNLVGRSASGFCQSRGPGGGFGGGIGGGIGGGRGFGGGGFGGGYGGGGRFGGGFGGAGFGFGGFGPSYPPGGIHEVTINQSLLEPLHLEVDPEIQRVKTQEREQIKTLNNKFASFIDKVRFLEQQNQVLQTKWELLQQVNTSTRTSSLEPVFEEFISQLQRQVDVLTTEQLRQNTEIRNMQDVVEDYKNKYEDEINKRTNAENDFVVLKKDVDAAFMGKSDLQSKVDTLYGEINFLKYLFDTELSQIQTHVSDTNVILSMDNNRSLDLDSIIDAVRAQYEIIAQKSKDEAEALYQTKYQELQITAGKHGDDLKNSKMEISELNRNIQRLRAEIANIKKQVEGMHGLISDAEERGERALQNAKQKLQDMEEALQQAKEDLAKLLRDYQAMLGAKLSLDVEIATYRQLLEGEESRMSGALQSQVSISVQSSQVTIGGGGGGSGSYSGSSRGGGGGGGGTGSRGGGGGGGGSSYVSSSRSATKYGSGGGSSRTQILQTSTHSSRRHVVE

tested on: coronal proteins on NPs; set-up: species or system mouse; conditions: HBPE-NPs incubated 1 h with IAV day 5 (V5) mouse sera, 20:1 NP:sera, centrifuged and washed

Molecule	V5 Sera_Nanoparticles Quantitative Value (Normalized Total Spectra)
B1	62.011
B2	3.2638
B3	3.2638
B4	3.2638
B5	3.2638
B6	3.2638
B7	3.2638
B8	3.2638

same assay, conditions: IAV day 5 (V5) mouse sera alone, no NPs (sera-only control)

Molecule	V5 Sera Alone (Control) Quantitative Value (Normalized Total Spectra)
B1	53.663
B2	5.5514
B3	12.953
B4	7.4018
B5	7.4018
B6	5.5514
B7	4.6261
B8	7.4018
